In US20240123029A1 (HUMANITAS MIRASOLE S P A, published 2024):

Molecular target: Biotinylated SARS-CoV-2 S protein, His Tag, active trimer (SARS-CoV-2, UniProt P0DTC2 16-1213)
Assay: ELISA; CL-L1 coated on plate, biotinylated S protein 0-25 nM, HRP-streptavidin

B1: Recombinant human Collectin-10 (CL-L1) (other)
chain: LDIDSRPTAEVCATHTISPGPKGDDGEKGDPGEEGKHGKVGRMGPKGIKGELGDMGDQGNIGKTGPIGKKGDKGEKGLLGIPGEKGKAGTVCDCGRYRKFVGQLDISIARLKTSMKFVKNVIAGIRETEEKFYYIVQEEKNYRESLTHCRIRGGMLAMPKDEAANTLIADYVAKSGFFRVFIGVNDLEREGQYMFTDNTPLQNYSNWNEGEPSDPYGHEDCVEMLSSGRWNDTECHLTMYFVCEFIKKKK
- binding result: no binding (tested: 25 nM)
